Measured values from several laboratories, pooled; numbers as filed in NIAID ChemDB.

All rows: tests on isolated targets

Conditions beyond the fields shown may differ between rows. ICn: concentration for n% inhibition. Fold resistance: result on the changed form divided by that on wild type. Percent inhibition refers to the dose given; in toxicity tests it is the harm to the cells. Blank or dashed fields: not listed here. a–b is a range or a potency band.

structure	tested at	conditions	target	endpoint	read by	mutations	value
CC(C)[C@H](NC(=O)[C@@H](NC(=O)C(Cc1ccccc1)CP(=O)(O)C(Cc1ccccc1)NC(=O)c1ccccc1)C(C)C)C(N)=O	-	pH 3.5	Cathepsin D	Ki	-	-	0.017 µM
CC(C)(C)OC(=O)NCCC(=O)Nc1cccc(C(c2c(O)c3c(oc2=O)CCCCCC3)C2CC2)c1	25 µM	-	Cathepsin D	inhibition	-	-	0%
NC(N)=NCCC[C@H](N)C(=O)NC[C@@H]1OC(O[C@H]2[C@@H](O)[C@H](O[C@@H]3[C@@H](O)[C@H](NC(=O)[C@@H](N)CCCN=C(N)N)C[C@H](NC(=O)[C@@H](N)CCCN=C(N)N)[C@H]3O[C@H]3O[C@H](CNC(=O)[C@@H](N)CCCN=C(N)N)[C@@H](O)[C@H](O)[C@H]3NC(=O)[C@@H](N)CCCN=C(N)N)O[C@@H]2CO)[C@H](NC(=O)[C@@H](N)CCCN=C(N)N)[C@@H](O)[C@@H]1O	-	-	CXCR4	IC50	flow cytometry	-	<10 µM
NC(N)=NCCC[C@@H]1NC(=O)[C@@H](Cc2ccc(F)cc2)NC(=O)[C@@H](CCCN=C(N)N)NC(=O)CNC(=O)[C@H](Cc2ccc3ccccc3c2)NC1=O	-	-	CXCR4	IC50	radiometric	-	0.094 µM
C[C@H]1CN(C2CCN(C(=O)c3c(F)cccc3I)CC2)CCN1[C@@H](C)c1ccc(I)cc1	-	-	CCR5	Ki	radiometric	-	1.3 µM
CCO/N=C(\c1ccc(Br)cc1)C1CCN(C2(C)CCN(C(=O)c3c(C)cc[n+]([O-])c3C)CC2)CC1	-	8 h	CCR5	Ki	radiometric	-	0.0032 µM
CC(C)(C)OC(=O)N[C@@H](Cc1ccccc1)[C@H](O)CNC[C@@H](O)[C@H](Cc1ccc(OCC(=O)N2CCOCC2)cc1)NC(=O)OC(C)(C)C	-	-	Cathepsin D	IC50	absorbance	-	>31 µM
O=c1ccn([C@H]2C[C@H](F)[C@@H](CO)O2)c(=O)[nH]1	-	-	Thymidine kinase	Ki	thymidine uptake / kinase activity	-	392 µM
Nc1ncnc2c1ncn2CCOCP(=O)(O)O	-	-	Adenosine deaminase	IC50	-	-	>500 µM
OC[C@H]1O[C@@H](n2c(I)nc3cc(Br)c(Br)cc32)[C@H](O)[C@@H]1O	-	-	Protein kinase C	IC50	-	-	>30 µM
[N-]=[N+]=N[C@H]1C[C@H](n2cc(I)c(=O)[nH]c2=O)O[C@@H]1CO	-	-	Thymidine kinase	Ki	nucleotide incorporation	-	2.63 µM
O=c1[nH]c(=O)n([C@H]2C[C@H](F)[C@@H](CO)O2)cc1Br	-	-	Thymidine kinase	Ki	thymidine uptake / kinase activity	-	5.7 µM
O=C(C1CCCCC1)N1C[C@H](CN2CCC(c3ccccc3)CC2)[C@@H](c2ccccc2)C1	-	-	CCR5	fold resistance	radiometric	CCR5-W86A	>43.48
C[C@@H]1C[C@H]2CC(=O)O[C@]3(C1)N1CCCC(=O)[C@]23CCC1	-	-	Acetylcholinesterase	IC50	-	-	90.3 µM
O=C(O)c1cc(SSc2ccc([N+](=O)[O-])c(C(=O)O)c2)ccc1[N+](=O)[O-]	-	-	Protein disulfide isomerase	IC50	-	-	6.8 µM
NC(N)=NCCC[C@@H]1NC(=O)[C@@H](Cc2ccc(O)cc2)NC(=O)CNC(=O)[C@@H]2Cc3c([nH]c4ccccc34)CN2C(=O)[C@H](CCCN=C(N)N)NC1=O	-	-	CXCR4	IC50	radiometric	-	>1 µM
CCOC(=O)C1=CN(Cc2ccccc2)C2C(CO)(C3N(Cc4ccccc4)C=C(C(=O)OCC)[C@H](c4ccccc4)C23CO)[C@H]1c1ccccc1	-	-	P-glycoprotein	IC50	fluorescence	-	64.76 µM
C[C@H]1NC(=O)CNC(=O)[C@H](Cc2ccc3ccccc3c2)NC(=O)[C@H](CCCN=C(N)N)NC(=O)[C@H](CCCN=C(N)N)NC1=O	-	-	CXCR4	IC50	radiometric	-	>1 µM
C=C[C@@H]1C[C@]1(NC(=O)[C@@H]1C[C@@H](Oc2nccc3ccc(Br)cc23)CN1C(C)=O)C(=O)NS(=O)(=O)C1CC1	-	-	Cys159	IC50	FRET	-	>3 µM
CC(C)[C@H](NC(=O)[C@@H](NC(=O)C1CCCC1P(=O)(O)C(Cc1ccccc1)NC(=O)OCc1ccccc1)C(C)C)C(N)=O	-	pH 3.5	Cathepsin D	Ki	-	-	0.3 µM
NC(N)=NCCC[C@@H]1NC(=O)[C@H](CCCN=C(N)N)NC(=O)[C@@H](Cc2ccc(O)cc2)NC(=O)CNC(=O)[C@H](Cc2nc3ccccc3s2)NC1=O	-	-	CXCR4	IC50	radiometric	-	0.018 µM
COc1ccc2c(c1)c1c3c(c4c5ccccc5n(C)c4c1n2CCC#N)C(=O)NC3=O	-	-	Protein kinase C	IC50	-	-	0.0015 µM
NC(N)=NCCC[C@H](N)C(=O)NC[C@@H]1OC(O[C@H]2[C@@H](O)[C@H](O[C@@H]3[C@@H](O)[C@H](N)C[C@H](N)[C@H]3O[C@H]3O[C@H](CNC(=O)[C@@H](N)CCCN=C(N)N)[C@@H](O)[C@H](O)[C@H]3N)O[C@@H]2CO)[C@H](N)[C@@H](O)[C@@H]1O	10 µM	-	CXCR4	inhibition	flow cytometry	-	50%
Brc1c(Br)c(Br)c2[nH]c(I)nc2c1Br	-	-	Protein kinase A	IC50	-	-	>30 µM
NC[C@@H]1O[C@H](O[C@H]2[C@@H](O)[C@H](O[C@@H]3[C@@H](O)[C@H](N)C[C@H](N)[C@H]3O[C@H]3O[C@H](CO)[C@@H](O)[C@H](O)[C@H]3N)O[C@@H]2CO)[C@H](N)[C@@H](O)[C@@H]1O	-	-	CXCR4	IC50	flow cytometry	-	>10 µM
NC(N)=NCCC[C@H](N)C(=O)NC[C@@H]1OC(O[C@H]2[C@@H](O)[C@H](O[C@@H]3[C@@H](O)[C@H](NC(=O)[C@@H](N)CCCN=C(N)N)C[C@H](NC(=O)[C@@H](N)CCCN=C(N)N)[C@H]3O[C@H]3O[C@H](CNC(=O)[C@@H](N)CCCN=C(N)N)[C@@H](O)[C@H](O)[C@H]3NC(=O)[C@@H](N)CCCN=C(N)N)O[C@@H]2CO)[C@H](NC(=O)[C@@H](N)CCCN=C(N)N)[C@@H](O)[C@@H]1O	-	-	CXCR4	IC50	-	-	2.7 µM
O=C(O)[C@@H](C1CCCCC1)N1C[C@H](CN2CCC(O)(CCCc3ccccc3)CC2)[C@@H](c2ccccc2)C1	-	-	L-type Ca2+ channel	IC50	-	-	>10 µM
C=CCN(C(=O)OCc1ccc([N+](=O)[O-])cc1)C1CCN(CC[C@](C)(CN(C)S(=O)(=O)c2ccccc2)c2ccccc2)CC1	-	-	CCR5	IC50	radiometric	CCR5-D276A	0.004 µM
NC[C@H]1O[C@H](O[C@H]2[C@H](O)[C@@H](O)[C@H](N)C[C@@H]2N)[C@H](N)[C@@H](O)[C@@H]1O	20 µM	-	CXCR4	inhibition	flow cytometry	-	0%
NC(N)=NCCC[C@@H]1NC(=O)[C@H](CCCN=C(N)N)NC(=O)[C@@H](Cc2ccc(O)cc2)NC(=O)C/C=C/[C@H](Cc2ccc3ccccc3c2)NC1=O	-	-	CXCR4	IC50	radiometric	-	0.18 µM
NC(N)=NCCCC(N)C(=O)NC[C@H]1O[C@H](O[C@H]2[C@H](O)[C@@H](O)[C@H](N)C[C@@H]2N)[C@H](N)[C@@H](O)[C@@H]1O	-	-	CXCR4	IC50	flow cytometry	-	>10 µM
CNC(C)[C@H]1O[C@H](O[C@@H]2[C@@H](O)[C@H](O[C@@H]3OC[C@@](C)(O)[C@@H](NC)[C@@H]3O)[C@@H](NC(=O)[C@@H](N)CCCN=C(N)N)C[C@H]2NC(=O)[C@@H](N)CCCN=C(N)N)[C@H](NC(=O)[C@@H](N)CCCN=C(N)N)[C@@H](O)[C@@H]1O	-	-	CXCR4	IC50	-	-	2 µM
NC(N)=NCCC[C@@H]1NC(=O)[C@H](CCCN=C(N)N)NC(=O)[C@@H](Cc2ccc(F)cc2)NC(=O)CNC(=O)[C@H](Cc2ccc3ccccc3c2)NC1=O	-	-	CXCR4	IC50	radiometric	-	0.22 µM
OC[C@H]1O[C@@H](n2cnc3c(Cl)c(Cl)c(Cl)cc32)[C@H](O)[C@@H]1O	-	-	Protein kinase C	IC50	-	-	>30 µM
NC(N)=NCCC[C@H]1/C=C/[C@@H](Cc2ccc3ccccc3c2)C(=O)NCC(=O)N[C@H](Cc2ccc(O)cc2)C(=O)N[C@@H](CCCN=C(N)N)C(=O)N1	-	-	CXCR4	IC50	radiometric	-	31–100 µM
O=Nc1c(-c2c(O)[nH]c3ccccc23)[nH]c2ccccc12	-	-	Cyclin-dependent kinase 9	IC50	radiometric	-	0.05 µM
NC(N)=NCCC[C@@H]1NC(=O)[C@H](Cc2ccc(F)cc2)NC(=O)[C@@H](CCCN=C(N)N)NC(=O)CNC(=O)[C@H](Cc2ccc3ccccc3c2)NC1=O	-	-	CXCR4	IC50	radiometric	-	0.088 µM
O=C1N(Cc2ccc(CO)cc2)[C@H](Cc2ccccc2)[C@H](O)[C@@H](O)[C@@H](Cc2ccccc2)N1Cc1ccc(CO)cc1	200 µM	-	Cathepsin D	inhibition	-	-	2.5%
NC(N)=NCCC[C@@H]1NC(=O)[C@H](CCCN=C(N)N)NC(=O)[C@H]2Cc3ccc(O)cc3CN2C(=O)CNC(=O)[C@H](Cc2ccc3ccccc3c2)NC1=O	-	-	CXCR4	IC50	radiometric	-	0.16 µM
Cc1cc(SC2=C(O)C[C@@](CCc3ccc(O)cc3)(C(C)C)OC2=O)c(C(C)(C)C)cc1CO	10 µM	-	Cytochrome P450 3A4	inhibition	-	-	14%
CN1C(=O)C(c2cc(Cl)c(O)c(Cl)c2)NC(=O)[C@@H]2NC(=O)C(c3cc(Cl)c(O)c(Cl)c3)NC(=O)[C@H](NC(=O)C(=O)c3cc(Cl)c(O)c(Cl)c3)Cc3c[nH]c4c(cccc34)-c3cc2cc(c3O)Oc2ccc(cc2)CC1C(=O)NC(C(=O)O)c1ccc(O)cc1	10 µg/mL	-	gp120	inhibition	ELISA	-	100%
CCCCCCCCCCCCCCCCOC[C@H](CCl)OP(=O)(O)OCC[N+](C)(C)C	19 µM	-	Protein kinase C	inhibition	-	-	86%
CN1CC[C@H](c2c(O)cc(O)c3c(=O)cc(-c4ccccc4F)oc23)[C@H](O)C1	-	-	Cyclin-dependent kinase 3	IC50	kinase activity	-	1.423 µM
CC(C)(C)NC(=O)[C@@H]1CN(Cc2cnc3occc3c2)CCN1C[C@@H](O)C[C@@H](Cc1ccccc1)C(=O)N[C@H]1c2ccccc2C[C@H]1O	10 µM	-	Cytochrome P450	inhibition	-	-	40–60%
CC(C)[C@H](NC(=O)[C@@H](NC(=O)C(Cc1ccccc1)CP(=O)(O)C(Cc1ccccc1)NC(=O)[C@@H](NC(=O)[C@@H](NC(=O)OC(C)(C)C)C(C)C)C(C)C)C(C)C)C(N)=O	-	pH 3.5	Cathepsin D	Ki	-	-	0.009 µM
Clc1c(Cl)c(Cl)c2n[nH]nc2c1Cl	-	-	Protein kinase A	IC50	-	-	>30 µM

The last 5 rows once more:

structure,tested at,conditions,target,endpoint,read by,mutations,value
CCCCCCCCCCCCCCCCOC[C@H](CCl)OP(=O)(O)OCC[N+](C)(C)C,19 µM,-,Protein kinase C,inhibition,-,-,86%
CN1CC[C@H](c2c(O)cc(O)c3c(=O)cc(-c4ccccc4F)oc23)[C@H](O)C1,-,-,Cyclin-dependent kinase 3,IC50,kinase activity,-,1.423 µM
CC(C)(C)NC(=O)[C@@H]1CN(Cc2cnc3occc3c2)CCN1C[C@@H](O)C[C@@H](Cc1ccccc1)C(=O)N[C@H]1c2ccccc2C[C@H]1O,10 µM,-,Cytochrome P450,inhibition,-,-,40–60%
CC(C)[C@H](NC(=O)[C@@H](NC(=O)C(Cc1ccccc1)CP(=O)(O)C(Cc1ccccc1)NC(=O)[C@@H](NC(=O)[C@@H](NC(=O)OC(C)(C)C)C(C)C)C(C)C)C(C)C)C(N)=O,-,pH 3.5,Cathepsin D,Ki,-,-,0.009 µM
Clc1c(Cl)c(Cl)c2n[nH]nc2c1Cl,-,-,Protein kinase A,IC50,-,-,>30 µM